Anti-infective test results gathered from many reports (values: NIAID ChemDB through PubChem).

Common to all: growth or infection tests; species: Hepatitis B virus; method: ELISA / antigen; measure: EC50

Neighbouring rows are from separate reports. Blank or dashed fields: not listed here. ECn: concentration that inhibits the pathogen or its effect by n%.

smiles | cell line | strain | result
CC(=O)N[C@H]1C(O[C@@H]2[C@@H](O)[C@H](O)[C@@H](O)C[C@H]2OC(=O)[C@H]2C[C@H](O)[C@]3(O)[C@@H](O)[C@]4(C[C@H](OC(=O)c5ccc(O)cc5)[C@H](C)CO4)O[C@]3(O)C2)O[C@H](CO)[C@@H](O)[C@@H]1O | HepG2 2.2.15 |  | 24.3 µM
[N-]=[N+]=N[C@]1(CO)O[C@@H](n2ccc(N(CCO)CCO)nc2=O)[C@@H](F)[C@@H]1O | HepG2.2.15 |  | 0.25 µM
CC(C)[C@@H](C)/C=C/[C@@H](C)[C@H]1CCC2C3=C[C@@H](O)[C@@]4(O)C[C@@H](O)CC[C@]4(C)C3CC[C@@]21C | HepG2.2.15 |  | 35 µM
C[C@@H]1CO[C@@]2(C[C@@H]1OC(=O)c1ccc(O)cc1)O[C@]1(O)C[C@@H](C(=O)O[C@@H]3C[C@H](O)[C@@H](O)[C@H](O)[C@H]3OC3O[C@H](CO)[C@@H](O)[C@H](O)[C@H]3O)C[C@H](O)[C@]1(O)[C@H]2O | HepG2 2.2.15 |  | 15.1 µM
CN1[C@H](C(=O)Nc2ccc(F)c(Cl)c2)C[C@H](c2ncc(-c3cn(C)cn3)s2)NS1(=O)=O | PHH | Genotype D | 0.216 µM
C[C@H](Cn1cnc2c(N)ncnc21)OCP(=O)(O)O | HepG2.2.15 |  | 19.19 µg/mL
OC[C@H]1OC2OC[C@H](c3ccc(O)c(O)c3)OC2[C@@H](O[C@@H]2OC[C@](O)(CO)[C@H]2O)[C@@H]1O | HepG2.2.15 |  | 930 µM
C[C@H]1OC(=O)[C@@H](O)CC2[C@]3(C)CC[C@@]4(CC(=O)O)C5CC(C)(C)CC[C@]5(C)CC[C@]4(C)C3CC[C@@]21C | HepG2.2.15 |  | 26.2 µM
Cc1c(O)cc2c(c1O)C(=O)[C@H](Cc1ccc(O)cc1)CO2 |  |  | 3.82 µg/mL
ClCCc1c(Cl)nc2ccc(Cl)cc2c1-c1ccccc1Cl | HepG2.2.15 |  | 1400 µM
C/C=C(/C)C(=O)Oc1c(OC)c(OC)cc2c1-c1c(cc(OC)c(OC)c1OC)C[C@H](C)[C@H](C)C2 | HepG2.2.15 |  | <9.73 µg/mL
C[C@@H]1CO[C@@]2(C[C@@H]1OC(=O)c1ccccc1)O[C@@H]1C[C@@H](C(=O)O[C@@H]3C[C@H](O)[C@@H](O)[C@H](O)[C@H]3OC3O[C@H](CO)[C@@H](O)[C@H](O)[C@H]3O)C[C@H](O)[C@]1(O)[C@H]2O | HepG2 2.2.15 |  | 0.8 µM
C[C@@H]1O[C@@H](O[C@@H]2C3O[C@@H](c4ccc(O)c(O)c4)COC3O[C@H](CO)[C@H]2O)[C@H](O)[C@H](O)[C@H]1O | HepG2.2.15 |  | 420 µM
CC1O[C@@H]2C[C@H]3[C@H]4C5=C(C(=O)OCC5=C[C@]13C1=C2C(=O)OCC1)[C@@H](O)[C@]12C(=O)OCCC1=C(C=O)[C@@H](C)O[C@H]42 | HepG2.2.15 |  | 500 µM
CC[C@]12CCC(C)(C)CC1[C@]1(CC(=O)O)CC[C@@]3(C)C4C[C@H](O)C(=O)O[C@H](C)[C@@]4(C)CCC3[C@@]1(C)CC2 | HepG2.2.15 |  | 15.2 µM

2 of the rows above, restated:

smiles	cell line	strain	result
C/C=C(/C)C(=O)Oc1c(OC)c(OC)cc2c1-c1c(cc(OC)c(OC)c1OC)C[C@H](C)[C@H](C)C2	HepG2.2.15		<9.73 µg/mL
C[C@H]1OC(=O)[C@@H](O)CC2[C@]3(C)CC[C@@]4(CC(=O)O)C5CC(C)(C)CC[C@]5(C)CC[C@]4(C)C3CC[C@@]21C	HepG2.2.15		26.2 µM